Target: SARS CoV-1 spike on pseudotyped lentivirus (CoV-1 PVP) (SARS CoV-1) (UniProt P59594)
Assay: cell-based or functional assay

“Recombinant ACE2 protein (from UniProt Q9BYF1 18-740) (receptor)” gave an IC50, CoV-1 pseudovirus microneutralization assay, 293T/ACE2 target cells of 0.0143 µM.
